Results deposited as PubChem BioAssay AID504761 (Drosophila RNAi Screening Center, 2011).
Purpose: 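Genome-wide fly cell screen for genes dengue virus requires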 (primary screen). Cell system: D.Mel-2 cells from Drosophila. Reagents: long dsRNA against Drosophila genes. Challenge: infection with dengue virus type 2; dose and infection time not stated. Measured: 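Per well on two replicate plates, imaging gave the percent of cells positive for viral envelope protein, ranked by infection, and a nuclear count of cells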. Reading the numbers: infection score: higher = more virus-infected cells; cell count: higher = more cells in the well. Active means: 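Very low infection ranking in both replicate wells (chance probability at most 0.065), then a retest showing infection dropped 1.5-fold or more at p below 0.05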. Meaning of the calls: active = confirmed: knock-down lowers infection; inactive = not picked or not confirmed.
The screen tested about 22,000 reagents; below is an unselected part of those with a known target gene and a result. Over the whole deposit, 116 (0.52%) are marked active. 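Calls depend on retest data that are not deposited; infection was ranked per plate without normalising between plates; the unit of the infection score is not given.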 The raw values are shown without normalisation. A number with no mark means an inactive call. The numbers tell different reagents against one gene apart. A plus sign joins genes that one reagent is predicted to hit. Not stated in the record: the amount of reagent, the time to read-out.

{"target": "Bug22 (Basal body up regulated gene 22)", "reagent": 1, "infection score, replicate 1": 4.26, "infection score, replicate 2": 3.82, "cell count, replicate 1": 6294, "cell count, replicate 2": 6437}
{"target": "Sur-8", "reagent": 1, "infection score, replicate 1": 16.6, "infection score, replicate 2": 18.2, "cell count, replicate 1": 3083, "cell count, replicate 2": 5568}
{"target": "CG5447", "reagent": 1, "infection score, replicate 1": 2.45, "infection score, replicate 2": 9.05, "cell count, replicate 1": 6197, "cell count, replicate 2": 2200}
{"target": "CG5447", "reagent": 2, "infection score, replicate 1": 0.81, "infection score, replicate 2": 2.39, "cell count, replicate 1": 6381, "cell count, replicate 2": 6195}
{"target": "CG5731", "reagent": 1, "infection score, replicate 1": 8.08, "infection score, replicate 2": 3.68, "cell count, replicate 1": 6278, "cell count, replicate 2": 6149}
{"target": "CG5731", "reagent": 2, "infection score, replicate 1": 2.5, "infection score, replicate 2": 5.79, "cell count, replicate 1": 6004, "cell count, replicate 2": 6428}
{"target": "Fancl", "reagent": 1, "infection score, replicate 1": 15.8, "infection score, replicate 2": 2.41, "cell count, replicate 1": 5947, "cell count, replicate 2": 6940}
{"target": "CG13445", "reagent": 1, "infection score, replicate 1": 1.16, "infection score, replicate 2": 5.71, "cell count, replicate 1": 6145, "cell count, replicate 2": 5513}
{"target": "CG13445", "reagent": 2, "infection score, replicate 1": 5.06, "infection score, replicate 2": 5.74, "cell count, replicate 1": 6818, "cell count, replicate 2": 6463}
{"target": "Cpr65Au (Cuticular protein 65Au)", "reagent": 1, "infection score, replicate 1": 17.9, "infection score, replicate 2": 16, "cell count, replicate 1": 3437, "cell count, replicate 2": 6752}
{"target": "SkpF + CG5357 (retired record)", "reagent": 1, "infection score, replicate 1": 9.98, "infection score, replicate 2": 6.7, "cell count, replicate 1": 6935, "cell count, replicate 2": 6928}
{"target": "Rpt5 (Regulatory particle triple-A ATPase 5)", "reagent": 1, "infection score, replicate 1": 8.18, "infection score, replicate 2": 12.7, "cell count, replicate 1": 2177, "cell count, replicate 2": 2052}
{"target": "Rpt5 (Regulatory particle triple-A ATPase 5)", "reagent": 2, "infection score, replicate 1": 3.28, "infection score, replicate 2": 3.08, "cell count, replicate 1": 792, "cell count, replicate 2": 845}
{"target": "CG13947", "reagent": 1, "infection score, replicate 1": 2.82, "infection score, replicate 2": 4.23, "cell count, replicate 1": 5893, "cell count, replicate 2": 6294}
{"target": "CG13947", "reagent": 2, "infection score, replicate 1": 2.99, "infection score, replicate 2": 3.6, "cell count, replicate 1": 6024, "cell count, replicate 2": 6140}
{"target": "Tsp42Ee (Tetraspanin 42Ee)", "reagent": 1, "infection score, replicate 1": 20.9, "infection score, replicate 2": 13.1, "cell count, replicate 1": 5759, "cell count, replicate 2": 5473}
{"target": "Tsp42Ee (Tetraspanin 42Ee)", "reagent": 2, "infection score, replicate 2": 25.6, "cell count, replicate 1": 338, "cell count, replicate 2": 5926}
{"target": "CG13110", "reagent": 1, "infection score, replicate 1": 2.18, "infection score, replicate 2": 8.37, "cell count, replicate 1": 6067, "cell count, replicate 2": 6162}
{"target": "CG31323", "reagent": 1, "infection score, replicate 1": 13.1, "infection score, replicate 2": 1.89, "cell count, replicate 1": 5218, "cell count, replicate 2": 6766}
{"target": "Spn42Dc (Serpin 42Dc)", "reagent": 1, "infection score, replicate 1": 11.1, "infection score, replicate 2": 9.24, "cell count, replicate 1": 4295, "cell count, replicate 2": 1700}
{"target": "CG4286", "reagent": 1, "infection score, replicate 1": 18.1, "infection score, replicate 2": 26.6, "cell count, replicate 1": 5121, "cell count, replicate 2": 5266}
{"target": "CG4286", "reagent": 2, "infection score, replicate 1": 18.8, "infection score, replicate 2": 14.1, "cell count, replicate 1": 6715, "cell count, replicate 2": 5785}

Individual results from the entries so far.
Under “infection score, replicate 2”, Rpt5 (Regulatory particle triple-A ATPase 5) #1 shows 12.7
Result for CG31323 in “cell count, replicate 1”: 5218
Under “infection score, replicate 1”, CG4286 #1 reads 18.1
Under “infection score, replicate 2”, Tsp42Ee (Tetraspanin 42Ee) #1 reads 13.1
